Results of unrelated studies side by side (data: NIAID ChemDB).

Common to all: whole-cell or culture tests; species: Varicella zoster virus; read by: cytopathic effect; endpoint: EC50

ECn: concentration that inhibits the pathogen or its effect by n%.

structure	cell line	strain	result
CC1(C)[C@@H](CO)CC[C@@]1(C)Cn1cnc2c(Cl)ncnc21	HEL	OKA	>50 µg/mL
CCCCCCCOc1ccc(-c2cc3cn([C@H]4C[C@H](O)[C@@H](CO)O4)c(=O)nc3o2)cc1	HEL	07/1 (TK-)	>50 µM
Nc1ncnc2c1ncn2CCCC(O)CF	HEL	YS	>50 µg/mL
Nc1ccn(C[C@@H](CO)OCP(=O)(O)O)c(=O)n1	HEL	Oka penciclovir-resistant/B	0.48 µM
CC1(C)[C@@H](CO)CC[C@@]1(C)Cn1nnc2c(N)ncnc21	HEL	YS	>50 µg/mL
Nc1ncnc2c1ncn2[C@@H]1C=C(CO)[C@@H](O)[C@H]1O	E6SM	07/1 YS/R (TK-)	70 µg/mL
CCCCCCOc1ccc(-c2cc3cn([C@H]4C[C@H](O)[C@@H](CO)O4)c(=O)nc3o2)cc1	HEL	YS	<0.5 µM
Nc1ncnc2c1ncn2C(CF)CCCO	HEL	07-01/TK-	>50 µg/mL
O=c1nc2oc(-c3ccc(Cl)cc3)cc2cn1[C@H]1C[C@H](O)[C@@H](CO)O1	HEL	OKA	0.5 µM
Nc1nc2c(ncn2CCC(CO)CO)c(=O)[nH]1	HEL	Oka penciclovir-resistant/B	7.9 µM
CCCCOc1ccc(-c2cc3cn([C@H]4C[C@H](O)[C@@H](CO)O4)c(=O)nc3o2)cc1	HEL	YS	<0.5 µM
Nc1nc2c(ncn2COC(CO)CO)c(=O)[nH]1	HEL	Oka penciclovir-resistant/A	0.39 µM
CC1(C)[C@@H](CO)CC[C@@]1(C)Cn1ccc(=O)[nH]c1=O	HEL	OKA	>50 µg/mL
O=C(O)P(=O)(O)O	HEL	Oka CF1743-resistant	25.5 µM
Nc1nc2c(ncn2CCCC(O)CF)c(=O)[nH]1	HEL	YS	>50 µg/mL
O=c1[nH]c(=O)n([C@@H]2O[C@H](CO)[C@@H](O)[C@@H]2O)cc1/C=C/Br	HEL	OKA (WILD TYPE)	0.0002 µM
CC1(C)[C@@H](CO)CC[C@@]1(C)Cn1cnc2c(=O)[nH]cnc21	HEL	YS/R (TK-)	>50 µg/mL

A second listing of 2 rows from above:

structure,cell line,strain,result
Nc1nc2c(ncn2CCC(CO)CO)c(=O)[nH]1,HEL,Oka penciclovir-resistant/B,7.9 µM
Nc1nc2c(ncn2COC(CO)CO)c(=O)[nH]1,HEL,Oka penciclovir-resistant/A,0.39 µM

Neighbouring rows are from separate reports.